Results of unrelated studies side by side (data: NIAID ChemDB).

Common to all: tests in culture; organism: Herpes simplex virus 1

Conditions beyond the fields shown may differ between rows. ECn is the concentration giving n% inhibition of infection, replication or growth. Blank or dashed fields: not listed here.

SMILES	read by	cells	endpoint	strain or isolate	result
Nc1nccc2c1ncn2[C@H]1C[C@H](O)[C@@H](CO)O1	-	HEL	EC50	KOS	>100 µM
O=C(NS(=O)(=O)OCCOCn1ccc(=O)[nH]c1=O)O[C@H]1O[C@H](COCc2ccccc2)[C@@H](OCc2ccccc2)[C@H](OCc2ccccc2)[C@H]1OCc1ccccc1	cytopathic effect	-	EC50	-	30 µM
Nc1ncnc2c1ncn2C[C@@H](CO)OCP(=O)(O)O	-	Primary rabbit kidney cells	EC50	TK-	2 µg/mL
NC(=O)c1cn([C@@H]2O[C@H](CO)C[C@H]2O)c2ncnc(N)c12	plaque count	HFF	EC50	-	60 µM
Nc1ncnc2c1ncn2CCOCP(=O)(O)O	cytopathic effect	HEL	EC50	KOS PMEA-resistant	68 µg/mL
CN1CCCC(CC2c3ccccc3Sc3ccccc32)C1	cytopathic effect	HeLa	EC50	KOS	>200 µg/mL
NC(=O)c1cn([C@@H]2O[C@H](CO)[C@@H](O)[C@@H]2O)c2ncnc(N)c12	cytopathic effect	PRK	EC50	KOS	4 µg/mL
O=c1c(O)c(-c2ccc(O)c(O)c2)oc2cc(O)cc(O)c12	-	VERO	EC50	-	<60 µg/mL
Cc1ccc(S(=O)(=O)Nc2ccccc2[Se][Se]c2ccccc2NS(=O)(=O)c2ccc(C)cc2)cc1	-	-	MIC	-	600 µg/mL
Nc1ncnc2c1ncn2CCOCP(=O)(O)O	-	Primary rabbit kidney cells	EC50	TK-	7 µg/mL
C=C[C@]1(C)C[C@@H](OC(=O)CO)[C@]2(C)C(C)CC[C@]3(CCC(=O)C32)[C@@H](C)[C@@H]1O	cytopathic effect	HeLa	EC50	KOS	40 µM
O=C(NS(=O)(=O)OC[C@H]1O[C@@H](n2ccc(=O)[nH]c2=O)[C@H](O)[C@@H]1O)O[C@H]1O[C@H](COCc2ccccc2)[C@@H](OCc2ccccc2)[C@H](OCc2ccccc2)[C@H]1OCc1ccccc1	cytopathic effect	-	EC50	-	90 µM
N#Cc1cn([C@@H]2O[C@H](CO)[C@@H](O)[C@H]2O)c2ncnc(N)c12	cytopathic effect	PRK	EC50	KOS	≥0.04 µg/mL
NS(=O)(=O)c1ccc(NC(=O)c2ccccc2[Se][Se]c2ccccc2C(=O)Nc2ccc(S(N)(=O)=O)cc2)cc1	-	-	MIC	-	>1000 µg/mL
COc1ccc(CCC(=O)c2c(O)cc(O[C@@H]3O[C@H](CO)[C@@H](O)[C@H](O)[C@H]3O[C@@H]3O[C@@H](C)[C@H](O)[C@@H](O)[C@H]3O)cc2O)cc1O	cytopathic effect	HeLa	EC50	KOS	>200 µg/mL
O=c1[nH]c(=O)n([C@H]2C[C@H](O)[C@@H](CO)O2)cc1/C=C/Br	cytopathic effect	HEL	EC50	KOS	0.007 µg/mL
CC1(C)OC2C(O1)[C@@H](COS(=O)(=O)NC(=O)O[C@H]1O[C@H](COCc3ccccc3)[C@@H](OCc3ccccc3)[C@H](OCc3ccccc3)[C@H]1OCc1ccccc1)O[C@H]2n1ccc(=O)[nH]c1=O	cytopathic effect	-	EC50	-	85 µM
CSc1nsc(-c2ccccc2)c1C#N	plaque count	VERO	EC50	F	>20 µg/mL
Nc1ncnc2c1ncn2C[C@H]1COP(=O)(O)CO1	-	Primary rabbit kidney cells	EC50	-	2 µg/mL
Nc1ccn(C[C@@H](CO)OCP(=O)(O)O)c(=O)n1	cytopathic effect	U138-MG	EC50	KOS	0.58 µg/mL
CCOC(=O)CSc1nsc(-c2ccccc2)c1C#N	plaque count	VERO	EC50	F	>200 µg/mL
Nc1ccn(C[C@@H](CO)OCP(=O)(O)O)c(=O)n1	cytopathic effect	HEL	EC50	PCV-resistant/A	0.33 µg/mL
O=c1c(O)c(-c2ccccc2)oc2cc(O)cc(O)c12	-	VERO	EC50	-	>15 µg/mL
N#Cc1c(N2CCCC2)nsc1-c1ccccc1	plaque count	VERO	EC50	F	>7 µg/mL
CC(=O)O[C@@H]1OC(=O)[C@](C)(C(C)=O)[C@@H]1C	cytopathic effect	HeLa	EC50	KOS	>200 µg/mL
C[C@@]1(CO)[C@H](O)CC[C@@]2(C)[C@H]1CC[C@H]1C[C@@H]3C[C@@]12CC[C@]3(O)CO	virus yield	HeLa	EC90	PMEA-resistant-1	0.1 µM
Nc1ncnc2c1ccn2[C@H]1C[C@H](O)[C@@H](CO)O1	plaque count	HFF	EC50	-	>320 µM
O=c1[nH]c(=O)n([C@H]2C[C@H](O)[C@@H](CO)O2)cc1I	plaque count	-	EC50	-	5 µM
Nc1ncnc2c1ncn2C[C@@H](CO)OCP(=O)(O)O	cytopathic effect	HEL	EC50	KOS	0.07 µg/mL
Nc1ncnc2c1ccn2[C@@H]1O[C@H](CO)[C@H](O)[C@H]1O	cytopathic effect	PRK	EC50	KOS	0.2 µg/mL
C[C@H](N)C(=O)OCP(=O)(OC[C@H]1O[C@@H](n2cc(/C=C/Br)c(=O)[nH]c2=O)C[C@@H]1O)Oc1ccccc1	-	HEL	EC50	KOS	0.3 µM
N#Cc1cn([C@@H]2O[C@H](CO)C[C@H]2O)c2ncnc(N)c12	plaque count	HFF	EC50	-	3.4 µM
N#Cc1c(N2CCOCC2)nsc1-c1ccccc1	plaque count	VERO	EC50	F	>1 µg/mL
CC(N)Cc1ccccc1	cytopathic effect	HeLa	EC50	KOS	>200 µg/mL
CCCSc1nsc(-c2ccccc2)c1C(N)=O	plaque count	VERO	EC50	F	>300 µg/mL
CN1C[C@H](C(=O)N[C@]2(C)O[C@@]3(O)[C@@H]4CCCN4C(=O)[C@H](Cc4ccccc4)N3C2=O)C=C2c3cccc4[nH]cc(c34)C[C@H]21	cytopathic effect	HeLa	EC50	KOS	>200 µg/mL
Nc1ncnc2c1ncn2C[C@@H](CO)OCP(=O)(O)O	cytopathic effect	U87MG	EC50	KOS	1.54 µg/mL
COC(=O)[C@@H]1c2cc3c(c(O)c2[C@@H](OC2OC(C)C(OC)C(C)(OC)C2OC)C[C@]1(C)O)C(=O)c1c(O)cc2c(c1C3=O)O[C@H]1O[C@]2(C)[C@H](O)[C@@H](N(C)C)[C@@H]1O	cytopathic effect	HeLa	EC50	KOS	>200 µg/mL
Nc1ncnc2c1ncn2[C@@H]1O[C@H](CO)[C@@H](O)[C@@H]1O	cytopathic effect	HEL	EC50	KOS HPMPC-resistant	11.7 µg/mL
Nc1nc2c(ncn2COCCO)c(=O)[nH]1	plaque count	VERO	EC50	KOS	0.29 µM
Nc1ccn(C[C@@H](CO)OCP(=O)(O)O)c(=O)n1	cytopathic effect	HEL	EC50	KOS BVDU-resistant	0.13 µg/mL
O=c1[nH]cnc2c1ncn2CCOCP(=O)(O)O	-	Primary rabbit kidney cells	EC50	-	>400 µg/mL
OC[C@H]1O[C@@H](n2cnc3c(Cl)nccc32)C[C@@H]1O	-	HEL	EC50	KOS	>100 µM
Nc1nc(N)c2ncn(CCOCP(=O)(O)O)c2n1	cytopathic effect	HEL	EC50	PCV-resistant/A	3.3 µg/mL
CC1=C(/C=C/C(C)=C/C=C/C(C)=C/C=C/C=C(C)/C=C/C=C(C)/C=C/C2=C(C)CCCC2(C)C)C(C)(C)CCC1	cytopathic effect	HeLa	EC50	KOS	>200 µg/mL
Nc1ncnc2c1c(Br)cn2[C@H]1CC[C@@H](CO)O1	plaque count	HFF	EC50	-	>100 µM
COc1ccc(C[C@H]2NC[C@H](O)[C@H]2OC(C)=O)cc1	cytopathic effect	HeLa	EC50	KOS	>100 µg/mL
Nc1nc(N)c2ncn(CC(CO)OCP(=O)(O)O)c2n1	-	Primary rabbit kidney cells	EC50	TK-	10 µg/mL
Nc1ncnc2c1ncn2CCOCP(=O)(O)O	virus yield	HeLa	EC90	KOS	80 µM
Nc1ccn(C[C@@H](CO)OCP(=O)(O)O)c(=O)n1	-	Primary rabbit kidney cells	EC50	-	4 µg/mL
CCOC(=O)P(=O)(O)OCCOCn1cnc2c(=O)[nH]c(N)nc21	cytopathic effect	VERO	EC50	L2/R	331 µM
CN(C)c1nsc(-c2ccccc2)c1C#N	plaque count	VERO	EC50	F	>15 µg/mL
O=c1c2ccccc2[se]n1-c1ccccc1	-	-	MIC	-	2 µg/mL
Nc1nc(=O)n([C@@H]2O[C@H](CO)[C@@H](O)[C@@H]2F)cc1I	cytopathic effect	HEL	EC50	KOS BVDU-resistant	9.9 µg/mL
Oc1ccccc1[Se][Se]c1ccccc1O	-	-	MIC	-	>1000 µg/mL
Nc1nc2c(ncn2COC(CO)CO)c(=O)[nH]1	cytopathic effect	HEL	EC50	ACV-resistant	7.23 µg/mL
Nc1nc2c(ncn2CCC(CO)CO)c(=O)[nH]1	cytopathic effect	HEL	EC50	KOS BVDU-resistant	4.7 µg/mL
CCc1cn([C@H]2C[C@H](O)[C@@H](COP(=O)(O)C(N)=O)S2)c(=O)[nH]c1=O	cytopathic effect	VERO	EC50	L2 acyclovir-susceptible	1.3 µM
O=C(O)CP(=O)(O)O	plaque count	-	EC50	-	20 µM

For reference, 3 entries again:

SMILES	read by	cells	endpoint	strain or isolate	result
Cc1ccc(S(=O)(=O)Nc2ccccc2[Se][Se]c2ccccc2NS(=O)(=O)c2ccc(C)cc2)cc1	-	-	MIC	-	600 µg/mL
CCOC(=O)P(=O)(O)OCCOCn1cnc2c(=O)[nH]c(N)nc21	cytopathic effect	VERO	EC50	L2/R	331 µM
Nc1ncnc2c1ncn2CCOCP(=O)(O)O	-	Primary rabbit kidney cells	EC50	TK-	7 µg/mL